Biological target: ATP
Experiment: ITC
Conditions: parent: 15.37 ± 4.85

Substance	Kd
LnaB (recombinant, ITC and AUC) D183A	16.1 µM
LnaB (recombinant, ITC and AUC) E309A	13.2 µM
LnaB (recombinant, ITC and AUC) H305A	16.3 µM
LnaB (recombinant, ITC and AUC) S261A	14.4 µM
LnaB (recombinant, ITC and AUC) Y196A	13.8 µM

Source: paper PMC11142304
